Compound potency records, mixed from different reports. Data source: NIAID ChemDB in PubChem.

All rows: growth or infection tests

Inhibition is in % at the dose shown (toxicity tests: loss of growth or viability). ECn is the concentration giving n% inhibition of infection, replication or growth. Lines come from different laboratories, so protocols vary. Blank or dashed fields: not listed here.

structure,species,strain,cells,read-out,tested at,value
C/C(=N\O)c1ccc2c(c1)Sc1ccccc1O2,Poliovirus,TYPE 3,BSC-1,inhibition,0.4 µg/mL,16%
Nc1ncnc2c1ncn2[C@@H]1O[C@H](CO)[C@@H](O)[C@@H]1O,Cowpox virus,Brighton,VERO,EC50,-,6.1 µM
Cn1cc(NC(=O)c2cc(NC(=O)CN=C(N)N)cn2C)c(C(=O)NCCC(=N)N)c1,Vaccinia virus,Noguchi,BSC-1,inhibition,25 µg/mL,32%
CC(=O)OC(C)c1ccc2c(c1)Sc1ccccc1O2,Poliovirus,TYPE 3,BSC-1,inhibition,10 µg/mL,96%
COc1ccc(-c2cc(N(C)C)no2)c(O)c1,African swine fever virus,-,VERO,EC50,-,>427 µM
COC(=O)c1ncn([C@@H]2C[C@@H](Oc3ccc(C)cc3)[C@H](COc3ccc(C)cc3)O2)c1C(=O)OC,Ebola virus,-,-,EC50,-,10 µg/mL
O=[N+]([O-])c1ccc2c(c1)c(N=NC(=S)Nc1ccccc1)c(O)n2CN1CCOCC1,Yellow fever virus,-,VERO,EC50,-,2.18 µg/mL
Cn1c(O)c(N=NC(N)=S)c2ccccc21,Variola virus,Isolate Brazil Garcia,LLC-MK2,EC50,-,44.1 µg/mL
CC(O)c1ccc2c(c1)Sc1cc(C(C)O)ccc1O2,Poliovirus,TYPE 3,BSC-1,inhibition,0.4 µg/mL,21%
Brc1ccc(C2=Cc3ccccc3OC2)cc1,Poliovirus,IB (TYPE 2),HEP-2,EC50,-,>10 µM
O=C1Nc2ccc([N+](=O)[O-])cc2/C1=N/N=C1/SCC(=O)N1c1ccc(Br)cc1,Yellow fever virus,-,VERO,EC50,-,>20 µg/mL
CCN(CC)c1cc(-c2ccc(O)cc2O)on1,African swine fever virus,-,VERO,EC50,-,>121 µM
Clc1ccc(C2=Cc3cc(Cl)ccc3OC2)cc1,Poliovirus,II (TYPE 2),HEP-2,inhibition,10 µM,10%
N=c1ncn(CC2CCCCC2)c2nc[nH]c12,Vaccinia virus,-,BSC-1,inhibition,12 µg/mL,0%
CC(=O)c1cccc(Oc2ccccc2)c1,Poliovirus,TYPE 3,BSC-1,inhibition,0.4 µg/mL,75%
Cn1cc(NC(=O)c2cc(NC(=O)c3cc(NC=O)cn3C)cn2C)cc1C(=O)NCCC(=N)N,Vaccinia virus,Noguchi,BSC-1,inhibition,10 µg/mL,83%
C1=C(c2ccccc2)COc2ccccc21,Poliovirus,IB (TYPE 2),HEP-2,EC50,-,>10 µM
Nc1nc(=O)n([C@@H]2C=C(CO)[C@@H](O)[C@H]2O)cc1I,Variola virus,7124,-,EC50,-,>100 µg/mL
Nc1ccn([C@@H]2C=C(CO)[C@@H](O)[C@H]2O)c(=O)n1,Variola virus,BSH,MK2,EC50,-,0.03 µg/mL
CC(O)c1ccc2c(c1)Sc1ccccc1S2,Poliovirus,TYPE 3,BSC-1,inhibition,10 µg/mL,100%
Nc1nc(=O)n([C@@H]2O[C@H](CO)[C@@H](O)[C@@H]2O)cc1F,Cowpox virus,Brighton,VERO,EC50,-,0.22 µM
CCN(CC)c1cc(-c2ccc(OC)cc2O)on1,African swine fever virus,-,VERO,EC50,-,>381 µM
NC(=O)c1csc([C@@H]2O[C@H](CO)[C@@H](O)[C@H]2O)n1,Variola virus,Isolate Brazil Garcia,LLC-MK2,EC50,-,6.1 µg/mL
Nc1nc(=O)n([C@@H]2C=C(CO)[C@@H](O)[C@H]2O)cc1F,Variola virus,7124,MK2,EC50,-,1.73 µg/mL
O=c1[nH]c(=O)n([C@@H]2O[C@H](CO)[C@@H](O)[C@@H]2F)cc1I,Cowpox virus,Brighton,VERO,EC50,-,28 µM
COC(C)c1ccc2c(c1)Sc1ccccc1O2,Poliovirus,TYPE 3,BSC-1,inhibition,10 µg/mL,18%
Cc1ccc(Cn2cnc(=N)c3[nH]cnc32)cc1,Vaccinia virus,-,BSC-1,inhibition,25 µg/mL,8%
CC(N)c1ccc2c(c1)Sc1ccccc1O2,Poliovirus,TYPE 3,BSC-1,inhibition,0.4 µg/mL,13%
Clc1ccc2c(c1)C=C(c1ccc(Br)cc1)CO2,Poliovirus,II (TYPE 2),HEP-2,inhibition,10 µM,4%
CCCCn1cnc(=N)c2[nH]cnc21,Vaccinia virus,-,BSC-1,inhibition,100 µg/mL,1%
Nc1ccn(C[C@@H](CO)OCP(=O)(O)O)c(=O)n1,Variola virus,Isolate Yamada,LLC-MK2,EC50,-,2.7 µg/mL
O=[N+]([O-])c1ccc2c(c1)c(N=NC(=S)NC1CCCCC1)c(O)n2CN1CCOCC1,Yellow fever virus,-,VERO,EC50,-,<0.8 µg/mL
CCCn1cnc(=N)c2[nH]cnc21,Vaccinia virus,-,BSC-1,inhibition,100 µg/mL,0%
Nc1ccn(C[C@H]2COP(=O)(O)CO2)c(=O)n1,Variola virus,Isolate V68059,VERO,EC50,-,20 µg/mL
CCN(CC)c1noc(-c2ccc(O)cc2O)c1Cc1c(N(CC)CC)noc1-c1ccc(OC)cc1O,African swine fever virus,-,VERO,EC50,-,>3.5 µM
N=c1ncn(Cc2cccc([N+](=O)[O-])c2)c2nc[nH]c12,Vaccinia virus,-,BSC-1,inhibition,50 µg/mL,0%
Cc1ccc(N2C(=O)C(C)S/C2=N/N=C2\C(=O)Nc3ccc([N+](=O)[O-])cc32)cc1,Yellow fever virus,-,VERO,EC50,-,>20 µg/mL
Nc1nc(=O)n([C@@H]2C=C(CO)[C@@H](O)[C@H]2O)cc1Br,Variola virus,Bangladesh 1975,-,EC50,-,100 µg/mL
O=[N+]([O-])c1ccc2c(c1)c(N=NC(=S)Nc1ccccc1)c(O)n2CN1CCCCC1,Yellow fever virus,-,VERO,EC50,-,>20 µg/mL
Nc1ccn(C[C@@H](CO)OCP(=O)(O)O)c(=O)n1,Cowpox virus,Brighton,C1271,EC50,-,1.1 µM

A second listing of 4 rows from above:

O=[N+]([O-])c1ccc2c(c1)c(N=NC(=S)Nc1ccccc1)c(O)n2CN1CCCCC1 ; species: Yellow fever virus ; cells: VERO ; read-out: EC50 ; value: >20 µg/mL
O=[N+]([O-])c1ccc2c(c1)c(N=NC(=S)Nc1ccccc1)c(O)n2CN1CCOCC1 ; species: Yellow fever virus ; cells: VERO ; read-out: EC50 ; value: 2.18 µg/mL
CCN(CC)c1noc(-c2ccc(O)cc2O)c1Cc1c(N(CC)CC)noc1-c1ccc(OC)cc1O ; species: African swine fever virus ; cells: VERO ; read-out: EC50 ; value: >3.5 µM
Cn1cc(NC(=O)c2cc(NC(=O)c3cc(NC=O)cn3C)cn2C)cc1C(=O)NCCC(=N)N ; species: Vaccinia virus ; strain: Noguchi ; cells: BSC-1 ; read-out: inhibition ; tested at: 10 µg/mL ; value: 83%